US11291637B2, “Methods for treating or preventing organophosphate poisoning” (dated 2022)

Key:
[1] = system: paraoxon-induced seizures; assay: Seizure severity (modified Racine scale) after paraoxon intoxication; conditions: isoflurane at 20 and 30 minutes after paraoxon
paraoxon intoxication = assay: Behavioral observation (sedation, appearance) after brief isoflurane in paraoxon-intoxicated rats

For `FC(F)OC(Cl)C(F)(F)F` (stereo not drawn), the “seizure stage at the 24 hour time point” value [1] was 0 stage, the “duration of mild sedation after cessation of isoflurane” value (paraoxon intoxication; 2% 3 min then 5% 1 min at 20 or 30 minutes after paraoxon) was 45 to 50 min and the “duration of mild sedation after cessation of isoflurane” value (paraoxon intoxication; 4%, 4.5% or 5% isoflurane in 100% oxygen for 5 minutes, 1 hour after paraoxon) was 45 to 50 min.
